Assay results reported in PMC6553790 (PLoS Pathogens, 2019).

Test system: P. falciparum Cam3.II and V1/S lines
Experiment: 72 hr dose-response assay, asynchronous cultures
Assay type: cell-based, Plasmodium falciparum
[1] = RPN6 E266K line vs parental Cam3.II K13WT
[2] = RPT4 E380* line vs parental Cam3.II K13WT
[3] = RPT5 G319S line vs parental Cam3.II K13C580Y
[4] = β2 A49E line vs parental V1/S K13C580Y
[5] = β2 C31F line vs parental V1/S K13WT
[6] = β2 C31Y line vs parental Cam3.II K13C580Y
[7] = β5 A20S line vs parental Cam3.II K13C580Y
[8] = β6 A117V line vs parental V1/S K13WT
[9] = β6 S208L line vs parental V1/S K13C580Y

Row | Compound | Fold change in IC50 [1] [fold] | Fold change in IC90 [1] [fold] | Fold change in IC50 [2] [fold] | Fold change in IC90 [2] [fold] | Fold change in IC50 [3] [fold] | Fold change in IC90 [3] [fold] | Fold change in IC50 [4] [fold] | Fold change in IC90 [4] [fold] | Fold change in IC50 [5] [fold] | Fold change in IC90 [5] [fold] | Fold change in IC50 [6] [fold] | Fold change in IC90 [6] [fold] | Fold change in IC50 [7] [fold] | Fold change in IC90 [7] [fold] | Fold change in IC50 [8] [fold] | Fold change in IC90 [8] [fold] | Fold change in IC50 [9] [fold] | Fold change in IC90 [9] [fold]
1 | CC(C)CC(C=CS(C)(=O)=O)NC(=O)C(CC(C)C)NC(=O)C(Cc1c[nH]c2ccccc12)NC(=O)CN1CCOCC1 (stereo not drawn) [WLL, Mu-WLL-vs] | 1.0 | 1.0 | 0.9 | 1.0 | 1.0 | 1.0 | 1.0 | 1.1 | 0.4 | 0.6 | 0.4 | 0.6 | 2.4 | 3.0 | 2.3 | 2.4 | 1.2 | 1.3
2 | CC(C)CC(NC(=O)C(Cc1c[nH]c2ccccc12)NC(=O)CN1CCOCC1)C(=O)NC(C=CS(C)(=O)=O)Cc1c[nH]c2ccccc12 (stereo not drawn) [WLW, Mu-WLW-vs] | 2.4 | 1.8 | 2.2 | 1.7 | 1.9 | 1.9 | 4.3 | 1.7 | 5.2 | 1.7 | 3.4 | 2.5 | 0.3 | 0.3 | 2.5 | 2.0 | 1.1 | 1.0
